Results: PMC8330757, “Design and characterisation of piperazine-benzofuran integrated dinitrobenzenesulfonamide as Mycobacterium tuberculosis H37Rv strain inhibitors” (Journal of Enzyme Inhibition and Medicinal Chemistry, 2021)

Tested on: human cell-line A549 cells
Test: In vitro cytotoxicity, MTT assay
Format: cell-based
Settings: selectivity index (IC50/MIC)
Procedure: The safety profile of the active hybrids was also accessed by testing in vitro cytotoxicity against human cell-line A549 cells at 50 μg/mL concentration by (4,5-dimethylthiazol-2-yl)-2,5-diphenyltetrazolium bromide (MTT) assay. […]
completion of starting material and formation of polar spot. The reaction mixture was concentrated to dry to give 7a-7d, used directly in next step.
1.2. In-vitro Mtb MABA assay
Briefly, the inoculum was prepared from fresh LJ medium re -suspended in 7H9-S medium (7H9 broth, 0.1% casitone, 0.5% glycerol, supplemented oleic acid, albumin, dextrose, and catalase [OADC]), adjuste d to an OD590 1.0, and diluted 1:20; 100 µl was used as inoculum. Each drug stock solution was thawed and diluted in 7H9 -S at four-fold the final highest concentration tested. Serial two-fold dilutions of each drug were prepared directly in a sterile 96 -well microtiter plate using 100 µl 7H9 -S. A growth control containing no antibiotic and a sterile control were also prepared on each plate. Sterile water was added to all perimeter wells to avoid evaporation during the incubation. The plate was covered, seal ed in plastic bags and incubated at 37 °C in normal atmosphere. After 7 days incubation, 30 µl of Alamar blue solution was added to each well, and the plate was re -incubated overnight. A change in colour from blue (oxidised state) to pink (reduced) indicat ed the growth of bacteria, and the MIC was defined as the lowest concentration of drug that prevented this change in colour. […]
the concentration of […]. After 72 h of exposure, viability was assessed on the basis of cellular conversion of MTT into a formazan product using the Promega Cell Titer 96 non - radioactive cell proliferation assay.
1.4. DPPH radical scavenging activity
The hydrogen atom or electron donation ability of some compounds were measured from the bleaching of the purple colored methanol solution of […] (DPPH). The spectrophotometric assay uses the stable radical DPPH as a reagent. 1 mL of various concentrations of the test compounds (5, 10, 25, 50 and 100 μg/mL) in methanol was added to 4 mL of 0.004% (w/v) methanol solution of DPPH. The reaction mixture was incubated at 37 °C.
The scavenging activity on DPPH was determined by measuring the absorbance at 517 nm after 30 min. All tests were performed in triplicate and the mean values were entered. The percent of inhibition (I %) of free radical production from DPPH was calculated by the following equation % of scavenging = [(A control – A sample)/ […]]. Where, A control is the […]

SMILES | Human cell lines A549 SI index
CCOC(=O)c1cc2cc(N3CCN(C(=O)C(C)(C)NS(=O)(=O)c4ccc([N+](=O)[O-])cc4[N+](=O)[O-])CC3)ccc2o1 [Compound 4j, ethyl 5-(4-(2-(2,4-dinitrophenylsulfonamido)-2-methylpropanoyl)piperazin-1-yl)benzofuran-2-carboxylate] | >60
O=C(Nc1ccccc1)c1cc2cc(N3CCN(S(=O)(=O)c4ccc([N+](=O)[O-])cc4[N+](=O)[O-])CC3)ccc2o1 [Compound 4n, 5-(4-((2,4-dinitrophenyl)sulphonyl)piperazin-1-yl)-N-phenylbenzofuran-2-carboxamide] | >15
CCOC(=O)c1cc2cc(N3CCN(S(=O)(=O)c4ccc([N+](=O)[O-])cc4[N+](=O)[O-])CC3)ccc2o1 [Compound 4a, ethyl 5-(4-(2,4-dintrobenzenesulfonyl)piperazin-1-yl)benzofuran-2-carboxylate] | >60
O=C(c1cc2cc(N3CCN(S(=O)(=O)c4ccc([N+](=O)[O-])cc4[N+](=O)[O-])CC3)ccc2o1)N1CCCCC1 [Compound 4o, (5-(4-((2,4-dinitrophenyl)sulphonyl)piperazin-1-yl)benzofuran-2-yl) (piperidin-1-yl)methanone] | >30
CCOC(=O)c1cc2cc(N3CCN(C(=O)C4CCCN(S(=O)(=O)c5ccc([N+](=O)[O-])cc5[N+](=O)[O-])C4)CC3)ccc2o1 (centres unmarked) [Compound 4f, ethyl 5-(4-(1-((2,4-dinitrophenyl)sulphonyl)piperidine-3-carbonyl)piperazin-1-yl)benzofuran-2-carboxylate] | >30
CCOC(=O)c1cc2cc(N3CCN(C(=O)CNS(=O)(=O)c4ccc([N+](=O)[O-])cc4[N+](=O)[O-])CC3)ccc2o1 [Compound 4b, ethyl 5-(4-(2-(2,4-dinitrophenylsulfonamido)acetyl)piperazin-1-yl)benzofuran-2-carboxylate] | >15
CCOC(=O)c1cc2cc(N3CCN(C(=O)C4CCN(S(=O)(=O)c5ccc([N+](=O)[O-])cc5[N+](=O)[O-])CC4)CC3)ccc2o1 [Compound 4e, ethyl 5-(4-(1-((2,4-dinitrophenyl)sulphonyl)piperidine-4-carbonyl)piperazin-1-yl)benzofuran-2-carboxylate] | >30
CCOC(=O)c1cc2cc(N3CCN(C(=O)CCCNS(=O)(=O)c4ccc([N+](=O)[O-])cc4[N+](=O)[O-])CC3)ccc2o1 [Compound 4d, ethyl 5-(4-(4-(2,4-dinitrophenylsulfonamido)butanoyl)piperazin-1-yl) benzofuran-2-carboxylate] | >30
